From US11597962B2 (priority 2017, dated 2023) come the findings set out here.

The nature of the data set: Peptide immobilization on glass surface, covalent versus non-covalent (fluorescence of FITC-labeled peptide). The settings on record: six spots, 10 μL.

“FITC-WxEAAYQkFLA [FITC-labeled peptide, FITC-labeled 11-mer representative peptide; k is D-lysine and x is D-norleucine]”: the “average mean fluorescence intensity (MFI) of surface bound peptide” value was 23927±4902 (covalent immobilization (APTES/glutaraldehyde)) and 19708±3299 (non-covalent immobilization).
